Results reported in PubChem BioAssay AID504423 (Broad Institute, 2011).
Only a part is listed here, and it is no random draw. Activity calls are given as the source filed them.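 The calls were made as follows: active = highest replicate inhibition at or above 60% at 9 µM, even if other replicates fall short; inactive = all replicates below 60% inhibition.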

The compounds below were run on Kaposi's sarcoma herpesvirus LANA C-terminal domain (residues 932-1162) DNA binding (assay: inhibitors of KSHV C-LANA binding to DNA, primary screen, biochemical, fluorescence polarization, FAM-LBS DNA, MBP-C-LANA, single point (AID 504423;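 also: 0% = neutral control wells and 100% = 4 µM acridine orange control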)). Conditions: at 9 µM, stronger effect = higher value.

Row | SMILES | inhibition
1 | N#Cc1ccc(C(=O)NCC2(N3CCCCC3)CCCCC2)cc1 | inactive: -0.458%
2 | CC(C)(C)OC(=O)N1CCC(N(C(=O)c2ccccc2)c2ccc(Cl)cc2)CC1 | inactive: 1.19%
3 | CN(C)C1(CNC(=O)c2cccc(C#N)c2)CCCCC1 | inactive: 2.66%
4 | CCCN1CCC(Nc2cc(OC)cc(OC)c2)CC1 | inactive: 39.1%
5 | Cc1cc(N(CCCl)CCCl)ccc1C=O | inactive: -0.506%
6 | c1ccc(CN2CCC(Nc3ccccc3)CC2)cc1 | inactive: 1.42%
7 | COc1ccc(C(=O)NCC2(N3CCOCC3)CCCCC2)cc1OC | inactive: 0.667%
8 | COc1cc(C(=O)NCC2(N3CCOCC3)CCCCC2)cc(OC)c1C | inactive: 2.21%
9 | O=C(NCC1(N2CCOCC2)CCCCC1)c1cc(Br)ccc1Cl | inactive: -0.213%
10 | O=C(OC1CN2CCC1CC2)C1c2ccccc2C=Cc2ccccc21 (centres undefined) | inactive: 2.97%
11 | CCOC(=O)N1CCC(Nc2ccc(C)cc2)CC1 | inactive: -0.399%
12 | N/C(=N\O)c1c(N)no[n+]1[O-] | inactive: -0.635%
13 | O=C(O)C1(Nc2ccccc2)CCN(Cc2ccccc2)CC1 | inactive: -0.334%
14 | CC(C)(C)OC(=O)N1CCC(Nc2ccccc2)CC1 | inactive: 0.607%
15 | CCCOc1ccc(C(=O)NCC2(N(C)C)CCCCC2)cc1 | inactive: -0.447%
16 | CN1CCC(Nc2ccc(F)c(Cl)c2)CC1 | inactive: -1.84%
17 | CCOc1ncccc1C(=O)NCC1(N2CCOCC2)CCCCC1 | inactive: 1.09%
18 | CN1CCC(Nc2ccc(Cl)cc2)CC1 | inactive: 2.46%
19 | COc1cccc(C(=O)N(c2cc(C)cc(C)c2)C2CCN(C(=O)OC(C)(C)C)CC2)c1 | inactive: 0.719%
20 | COc1cc(OC)cc(C(=O)NCC2(N3CCOCC3)CCCCC2)c1 | inactive: -1.13%
21 | CCC(CO)(C(=O)OC1CN2CCC1CC2)c1ccccc1 (centres undefined) | inactive: -0.925%
22 | Fc1ccccc1NC1CCN(Cc2ccccc2)CC1 | inactive: 1.89%
23 | Cc1ccc(C(=O)NCC2(N3CCCCC3)CCCCC2)o1 | inactive: -2.51%
24 | Cc1ccc(NC2(C#N)CCN(Cc3ccccc3)CC2)cc1 | inactive: 1.98%
25 | CC(=O)N(c1ccccc1)C1CCNCC1 | inactive: -0.425%

Row | SMILES | inhibition
26 | COc1cc(OC)cc(C(=O)NCC2(N3CCCCC3)CCCCC2)c1 | inactive: 0.099%
27 | CN(C)c1ccc(C(=O)NCC2(N3CCCCC3)CCCCC2)cc1 | inactive: -0.153%
28 | Cn1c(=O)[nH]cc(N(CCCl)CCCl)c1=O | inactive: 1.97%
29 | O=C(NCC1(N2CCCCC2)CCCCC1)c1ccco1 | inactive: -0.116%
30 | CCN1CCC(Nc2cccc(F)c2)CC1 | inactive: 1.72%
31 | Cc1ccccc1NC1(C#N)CCN(Cc2ccccc2)CC1 | inactive: 3.5%
32 | CCOC(=O)N1CCC(Nc2ccc(F)cc2)CC1 | inactive: 0.346%
33 | COc1ccc(NC2CCN(CCc3ccccc3)CC2)c(OC)c1 | inactive: 1.24%
34 | CCCCOc1ccc(C(=O)NCC2(N3CCOCC3)CCCCC2)cc1 | inactive: 1.03%
35 | O=P1(N(CCCl)CCCl)SCCCS1 | inactive: 0.0649%
36 | O=C(NCC1(N2CCCCC2)CCCCC1)c1ccc(F)cc1 | inactive: -1.32%
37 | O=C1CCN(Cc2ccccc2)CC1 | inactive: -2.26%
38 | CCOc1ccc(C)cc1CN(CCCl)CCCl | inactive: -0.368%
39 | CCOC(=O)N1CCC(Nc2cccc(C)c2)CC1 | inactive: -1.32%
40 | COc1cc(C(=O)NCC2(N(C)C)CCCCC2)ccc1OC(F)F | inactive: -0.0994%
41 | Cc1cccc(NC2(C#N)CCN(Cc3ccccc3)CC2)c1 | inactive: -0.844%
42 | CSc1ccccc1C(=O)NCC1(N2CCCCC2)CCCCC1 | inactive: -0.29%
43 | COc1ccc(C(=O)NCC2(N3CCCCC3)CCCCC2)c(OC)c1OC | inactive: 0.414%
44 | CC(C)(C)OC(=O)N1CCC(N(C(=O)c2ccccc2)c2ccc(F)cc2)CC1 | inactive: 2.95%
45 | COc1ccc(C(=O)NCC2(N3CCCCC3)CCCCC2)cc1 | inactive: -0.0421%
46 | O=C(NCC1(N2CCCCC2)CCCCC1)c1cccs1 | inactive: -0.369%
47 | O=C(NCC1(N2CCCCC2)CCCCC1)c1ccc(=O)[nH]c1 | inactive: 0.709%
48 | COc1ccc(Cl)cc1C(=O)NCC1(N2CCOCC2)CCCCC1 | inactive: 1.68%
49 | N#CC1(Nc2ccccc2)CCN(Cc2ccccc2)CC1 | inactive: -3.93%
50 | O=C(NCC1(N2CCCCC2)CCCCC1)c1ccc(Cl)s1 | inactive: -2.36%

Row | SMILES | inhibition
51 | O=C(OC1CN2CCC1CC2)C1c2ccccc2Oc2ccccc21 (centres undefined) | inactive: 5.06%
52 | CCOC(=O)N1CCC(Nc2ccc(OC)cc2)CC1 | inactive: 1.07%
53 | Cc1cc(C)cc(N(C(=O)c2ccccc2)C2CCN(C(=O)OC(C)(C)C)CC2)c1 | inactive: 0.255%
54 | O=C(NCC1(N2CCCCC2)CCCCC1)c1ccc(Cl)nc1 | inactive: -1.33%
55 | O=C(NCC1(N2CCOCC2)CCCCC1)c1cc2ccccc2o1 | inactive: -0.816%
56 | O=C(NCC1(N2CCOCC2)CCCCC1)c1cc(F)c(F)cc1Cl | inactive: 0.714%
57 | COc1cc(OC)c(C(=O)NCC2(N(C)C)CCCCC2)cc1OC | inactive: 1.18%
58 | CC(C)c1ccc(NC2CCN(C(=O)OC(C)(C)C)CC2)cc1 | inactive: 1.17%
59 | CN(C)c1cccc(C(=O)NCC2(N3CCCCC3)CCCCC2)c1 | inactive: -0.995%
60 | COc1ccc(CN(CCCl)CCCl)cc1Cl | inactive: -0.628%
61 | CCCOc1ccc(C(=O)NCC2(N(C)C)CCCCC2)cc1OC | inactive: 0.233%
62 | CN1CCC(Nc2cccc(F)c2)CC1 | inactive: 0.735%
63 | O=C(NCC1(N2CCCCC2)CCCCC1)c1cncc(Br)c1 | inactive: -0.231%
64 | N#CC1(Nc2ccccc2)CCN(CCc2ccccc2)CC1 | inactive: -1.1%
65 | CCN1CCC(Nc2ccc(Cl)cc2)CC1 | inactive: -1.61%
66 | CSc1ccc(C(=O)NCC2(N3CCOCC3)CCCCC2)cc1 | inactive: 0.225%
67 | O=C(NCC1(N2CCCCC2)CCCCC1)c1cccc([N+](=O)[O-])c1 | inactive: 0.276%
68 | O=C(NCC1(N2CCCCC2)CCCCC1)c1ccc(OC(F)F)cc1 | inactive: -3.12%
69 | O=C(NCC1(N2CCOCC2)CCCCC1)c1cc(=O)[nH]c2ccccc12 | inactive: -0.616%
70 | COc1cc(C(=O)NCC2(N3CCCCC3)CCCCC2)ccc1OC(F)F | inactive: -1.16%
71 | COc1ccc(NC2CCN(C(=O)OC(C)(C)C)CC2)cc1 | inactive: -1.36%
72 | CC(C)c1ccc(C(=O)NCC2(N3CCOCC3)CCCCC2)cc1 | inactive: -0.131%
73 | CN1CCN(CCOC(=O)C(O)(c2ccccc2)c2ccccc2)CC1 | inactive: 1.36%
74 | O=C(NCC1(N2CCCCC2)CCCCC1)c1cccc(C(F)(F)F)c1 | inactive: 0.267%
